This is a selection; strong and weak results do not stand in their true shares. The source made the active and inactive calls.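 Rule for the calls: active = activation above the mean over all tested compounds plus 3 SD (cut at about 0.9% in these data); inactive = the rest.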
test system: Nuclear hormone receptor DAF-12 (Strongyloides stercoralis); experiment: S. stercoralis DAF-12 nuclear receptor activators, primary screen, cell-based, luminescence, HEK293, GRIP1 co-expression, lit1-tk-luc (AID 652126); conditions: HEK293 ssDAF-12/GRIP1 lit1-tk-luc reporter, at 6.8 µM, active compounds read high, % of 3 µM dafachronic acid response;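 note: 0% = DMSO-only wells and 100% = 3 µM delta7-dafachronic acid wells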

**Q.** For O=C(NCC1(N2CCOCC2)CCCCC1)c1cc2ccccc2o1, which activation is on record?
**A.** inactive: -0.32%

**Q.** CSc1ccccc1C(=O)NCC1(N2CCCCC2)CCCCC1 was tested. Which activation did it give?
**A.** inactive: -0.38%

**Q.** For Cc1cccc(NC2(C#N)CCN(Cc3ccccc3)CC2)c1, which activation is on record?
**A.** inactive: -1.4%

**Q.** Which activation does the source give for COc1ccc(C(=O)NCC2(N3CCCCC3)CCCCC2)cc1 here?
**A.** inactive: -0.87%

**Q.** How did the activation turn out when CCC(c1nnnn1C1CCCC1)N1CCC(n2c(=O)[nH]c3ccccc32)CC1 (centres undefined) was run?
**A.** inactive: -1.75%

**Q.** How did the activation turn out when CC(C)(C)OC(=O)N1CCC(N(C(=O)c2ccccc2)c2ccc(F)cc2)CC1 was run?
**A.** inactive: -1.13%

**Q.** With COc1ccc(C(=O)NCC2(N3CCCCC3)CCCCC2)c(OC)c1OC as the molecule, how does the activation read?
**A.** inactive: -1.86%

**Q.** Which activation does the source give for O=C(NCC1(N2CCCCC2)CCCCC1)c1ccc(=O)[nH]c1 here?
**A.** inactive: -0.41%

**Q.** Which activation does the source give for CCCCn1nnnc1C(c1cccs1)N1CCC(n2c(=O)[nH]c3ccccc32)CC1 (centres undefined) here?
**A.** inactive: -1.99%

**Q.** With O=C(NCC1(N2CCCCC2)CCCCC1)c1cccs1 as the molecule, how does the activation read?
**A.** inactive: -0.31%

**Q.** How did the activation turn out when CCCCn1nnnc1C(CC)N1CCC(n2c(=O)[nH]c3ccccc32)CC1 (centres undefined) was run?
**A.** inactive: -1.18%

**Q.** For COc1cc(C(=O)NCC2(N(C)C)CCCCC2)ccc1OC(F)F, which activation is on record?
**A.** inactive: -1.09%

**Q.** With CCOC(=O)N1CCC(Nc2cccc(C)c2)CC1 as the molecule, how does the activation read?
**A.** inactive: -1.42%

**Q.** O=c1[nH]c2ccccc2n1C1CCN(C(c2cccc3ccccc23)c2nnnn2C2CCCC2)CC1 (centres undefined) was tested. Which activation did it give?
**A.** inactive: -1.2%

**Q.** Which activation does the source give for O=c1[nH]c2ccccc2n1C1CCN(C(c2ccccc2)c2nnnn2C2CCCCC2)CC1 (centres undefined) here?
**A.** inactive: -1.43%

**Q.** O=C(NCC1(N2CCCCC2)CCCCC1)c1ccc(F)cc1 was tested. Which activation did it give?
**A.** inactive: -0.98%

**Q.** Which activation does the source give for CCCCOc1ccc(C(=O)NCC2(N3CCOCC3)CCCCC2)cc1 here?
**A.** inactive: -0.92%

**Q.** How did the activation turn out when O=P1(N(CCCl)CCCl)SCCCS1 was run?
**A.** inactive: -0.11%

**Q.** For CCCCn1nnnc1C(c1cc2ccccc2o1)N1CCC(n2c(=O)[nH]c3ccccc32)CC1 (centres undefined), which activation is on record?
**A.** inactive: -1.71%

**Q.** Which activation does the source give for CCOC(=O)N1CCC(Nc2ccc(F)cc2)CC1 here?
**A.** inactive: -1.43%

**Q.** With COc1ccc(NC2CCN(CCc3ccccc3)CC2)c(OC)c1 as the molecule, how does the activation read?
**A.** inactive: -1.32%

**Q.** How did the activation turn out when CC(C)(C)n1nnnc1C(c1ccccc1)N1CCC(n2c(=O)[nH]c3ccccc32)CC1 (centres undefined) was run?
**A.** inactive: -0.4%

**Q.** For O=C1CCN(Cc2ccccc2)CC1, which activation is on record?
**A.** inactive: -1.68%

**Q.** CCOc1ccc(C)cc1CN(CCCl)CCCl was tested. Which activation did it give?
**A.** inactive: -1.16%

Reference: PubChem BioAssay AID652126 (The Scripps Research Institute Molecular Screening Center, 2013)
